A mixed list of measured activities; the numbers were collected in NIAID ChemDB.

Common to all: tests in culture

MIC50, MIC90 and the like: level of inhibition, or share of isolates inhibited. Conditions beyond the fields shown may differ between rows. a–b is a range or a potency band. ECn: concentration that inhibits the pathogen or its effect by n%. Fold resistance: result on the changed form divided by that on wild type. Percent inhibition refers to the dose given; in toxicity tests it is the harm to the cells. An empty or dashed field is not shown.

SMILES	dose	strain or isolate	cell line	read by	agent	measure	setting	changes	value
CC[C@H]1OC(=O)[C@H](C)[C@@H](OC2C[C@@](C)(OC)[C@@H](O)[C@H](C)O2)[C@H](C)[C@@H](OC2O[C@H](C)C[C@H](N(C)C)[C@H]2O)[C@](C)(OC2C[C@H](N)[C@H](O)[C@H](C)O2)C[C@@H](C)C(=O)[C@H](C)[C@@H](O)[C@]1(C)O		3D7	RBC	fluorescence	Plasmodium falciparum	EC50	48 h		38.2 µM
NC(=NCC(=O)O)c1ncn([C@@H]2O[C@H](CO)[C@@H](O)[C@H]2O)n1		Sicilian	VERO	cytopathic effect	Sandfly fever virus	EC50			566 µg/mL
Oc1cccc(C=Nc2ccccc2O)c1		L 27/01			Cryptococcus gattii	MIC99			16 µg/mL
Nc1nc(=O)n2ccn(C3O[C@H](CO)[C@@H](O)[C@H]3O)c2n1		TYPE 2			Dengue virus	EC50			>100 µM
Oc1ccccc1N=Cc1ccc(O)c(O)c1O		WP		broth dilution	Cryptococcus neoformans	MIC			11.3 µg/mL
Cc1cc(-c2ccc(N=Nc3c(S(=O)(=O)O)cc4cc(S(=O)(=O)O)cc(N)c4c3O)c(C)c2)ccc1N=Nc1c(S(=O)(=O)O)cc2cc(S(=O)(=O)O)cc(N)c2c1O	5 µg/mL		Human amnion AV3 cells	cytopathic effect	Rhinovirus	inhibition			0%
CCCC(CCC)C(NC(C)=O)C1C(N=C(N)N)CC(C(=O)O)C1O		H1N1 A/Bayern/07/95	MDCK		Influenza A virus	EC50			0.36 µM
CCOC(=O)/C=C/[C@H](C[C@@H]1CCNC1=O)NC(=O)[C@@H](CC(=O)[C@@H](NC(=O)c1cc(C)on1)C(C)C)Cc1ccc(F)cc1		Isolate 32	OHIO HELA-I	cytopathic effect / visual reading	Rhinovirus	EC50			<0.01 µg/mL
CCc1ccc(-c2noc(-c3ccccc3O)n2)cc1			Human foreskin fibroblasts		Toxoplasma gondii	MIC50			>0.25 µM
CC(=O)ONc1ccc(S(=O)(=O)N(Cc2ccccc2)C[C@@H](O)[C@H](Cc2ccccc2)NC(=O)Cc2c[nH]c3ccccc23)cc1			CEM	MTT	SIV	EC50			4.8 µM
CC(C)Oc1ccc2cc(C(=O)NC(=O)c3ccccc3O)ccc2c1			Human foreskin fibroblasts		Toxoplasma gondii	MIC50			0.062–0.125 µM
CC(=O)N[C@H]1C[C@@H](n2cnc3c(N)ncnc32)[C@H](O)[C@@H]1O			HFF		West Nile virus	EC50			>100 µg/mL
CCCCCCCCCCCCCCCCCCOCCOP(=O)(O)CO[C@H](CO)Cn1ccc(N)nc1=O			MRC-5	plaque count	Rat cytomegalovirus	EC50			0.005 µM
CCCCCCCCCCCCOC(=O)[C@]1(O)C[C@@H](O)[C@@H](O)[C@H](OC(=O)/C=C/c2ccc(O)c(O)c2)C1		CB 108.08		absorbance	Aspergillus ochraceus	MIC80			>2900 µM
O=C(Nc1cc(S(=O)(=O)O)cc2cc(S(=O)(=O)O)cc(O)c12)c1ccccc1	50 µg/mL		Human amnion AV3 cells	cytopathic effect	Rhinovirus	inhibition			40%
Cc1cc(CCCCCOc2cc(Cl)c(-c3nnco3)c(Cl)c2)on1		Serotype 89			Rhinovirus	MIC80			0.28 µg/mL
O=S(=O)([O-])c1ccc(O)c2ccccc12	10 µg/mL		Human amnion AV3 cells	cytopathic effect	Herpes simplex virus	inhibition			0%
C=C(C)C1COc2cc(OC)c3c(c2C1)OC(c1ccccc1)=CC3OC	6 µM	Type 2/Mexican isolate	LLC-MK2	plaque count	Dengue virus	inhibition			25.8%
C=CCc1ccc(OC)c(OC)c1		3087		turbidity	Candida albicans	MIC90			345 µg/mL
Oc1ccccc1N=Cc1ccc2c(c1)OCO2		547/OTTI-97-PI-10			Cryptococcus gattii	MIC99			16 µg/mL
O=S(=O)([O-])c1ccc2c(NS(=O)(=O)c3ccccc3)cc(S(=O)(=O)[O-])cc2c1	50 µg/mL	TYPE 3	Human amnion AV3 cells	cytopathic effect	Adenovirus	inhibition			0%
CN[C@H]1CC[C@@H](c2ccc(Cl)c(Cl)c2)c2ccccc21		99BC1-40		broth dilution	Cryptococcus neoformans	MIC90			4 µg/mL
O=C(Nc1cc(C(F)(F)F)cc(C(F)(F)F)c1)NN(Cc1cccc(O)c1)C(=O)Nc1cc(C(F)(F)F)cc(C(F)(F)F)c1		ES142			Escherichia coli	MIC			>300 µM
CC1CCC(C(=O)N(c2cc(C#CC(C)(C)C)sc2C(=O)O)C2CCC(O)CC2)CC1		H77 (GT1a)	Huh7	luciferase	Hepatitis C virus	fold resistance		M423V	17.9
O=[N+]([O-])c1ccc(C=Nc2ccccc2O)cc1		ATCC 62066			Cryptococcus neoformans	MIC99			2.8 µg/mL
O=c1oc2ccc(Br)cc2c(=S)n1-c1ccc(Cl)cc1		My 235/80			Mycobacterium kansasii	MIC	14 d		4 µM
CCC(CC)O[C@@H]1C=C(C(=O)O)C[C@H](N)[C@H]1NC(C)=O		H1N1 isolate C1D	MDCK	plaque count	Influenza A virus	EC50			≤0.01 µg/mL
C[C@@]1(O)[C@H](O)[C@@H](CO)O[C@H]1n1ccn2c(=O)nc(N)nc12		TYPE 2			Dengue virus	EC50			>100 µM
Nc1nc2c(ncn2COCCO)c(=O)[nH]1		V74262 (acyclovir-resistant)	HFF	cytopathic effect	Herpes simplex virus 2	EC50			>50 µg/mL
Cc1ccc(C(C)C)c(O)c1		CECT2071			Aspergillus fumigatus	MLC			0.64 µg/mL
Nc1nc(=O)n2ccn([C@@H]3C[C@@H](O)[C@H](CO)O3)c2n1		TYPE 2			Dengue virus	EC50			>100 µM
CC(=O)ONc1ccc(S(=O)(=O)N(CC(C)C)C[C@@H](O)[C@H](Cc2ccccc2)NC(=O)[C@H](CC(C)C)N2C(=O)c3ccccc3C2=O)cc1			CEM	MTT	SIV	EC50			7.2 µM
NC(=O)CC(N=C(N)c1ncn([C@@H]2O[C@H](CO)[C@@H](O)[C@H]2O)n1)C(=O)O		Sicilian	VERO	cytopathic effect	Sandfly fever virus	EC50			484 µg/mL
COc1cc(C(=O)NC(=O)c2ccccc2O)cc(OC)c1OC			Human foreskin fibroblasts		Toxoplasma gondii	MIC90			>1 µM
CSc1nsc(-c2ccc(OS(=O)(=O)c3ccc(C)cc3)cc2)c1C#N		Edmonston	HEP-2	plaque count	Measles virus	EC50			>25 µM
CC[C@H]1OC(=O)[C@H](C)[C@@H](OC2C[C@@](C)(OC)[C@@H](O)[C@H](C)O2)[C@H](C)[C@@H](OC2O[C@H](C)C[C@H](N(C)C)[C@H]2O)[C@](C)(OC2C[C@@H](N(C)C)[C@@H](O)[C@H](C)O2)C[C@@H](C)CN(C)[C@H](C)[C@@H](O)[C@]1(C)O		W2 Mef AziR	RBC	fluorescence	Plasmodium falciparum	EC50	120 h		0.22 µM
Fc1cccc(-n2c(=S)oc3ccc(Br)cc3c2=S)c1		My 235/80			Mycobacterium kansasii	MIC	14 d		16 µM
C[C@@H](c1ncncc1F)[C@](O)(Cn1cncn1)c1ccc(F)cc1F		CBS 11807		broth dilution	Cryptococcus gattii	MIC			0.5 µg/mL
O=c1[nH]c(=O)n([C@H]2C[C@H](O)[C@@H](CO)O2)cc1Br	1.268 µg/mL		ME	hybridisation	Murine polyoma virus	inhibition			78.6%
O=C(N[C@@H](C(=O)N1CCC[C@H]1c1ncc(-c2ccc(-c3ccc(-c4cnc([C@@H]5CCCN5C(=O)[C@H](NC(=O)C5CC5)c5ccccc5)s4)cc3)cc2)s1)c1ccccc1)C1CC1		genotype 2a	Huh7.5	luciferase / reporter gene	Hepatitis C virus	fold resistance		Y93H	3041
CCCCN=C(N)c1ncn([C@@H]2O[C@H](CO)[C@@H](O)[C@H]2O)n1		Sicilian	VERO	cytopathic effect	Sandfly fever virus	EC50			73 µg/mL
CC(C)N=C(N)c1ccc(N2CCN(c3ccccc3)CC2)cc1	0.1 µg/mL				Pneumocystis carinii	inhibition			0%
Cc1cc(O)c2c(c1)C(=O)c1c(cnn1C)C2=O	25 µM				Cryptosporidium parvum	inhibition			11%
FC(F)(F)c1ccc(-n2c(=S)oc3ccc(Br)cc3c2=S)cc1		6509/96			Mycobacterium kansasii	MIC	14 d		32 µM
CCOC(=O)c1c(C)nc(NCCCNc2ccnc3cc(Cl)ccc23)nc1-c1ccccc1		LMM 820			Cryptococcus neoformans	MIC99			8 µg/mL
CC(=O)ONc1ccc(S(=O)(=O)N(CC(C)C)C[C@@H](O)[C@H](Cc2ccccc2)NC(=O)c2ccc(-c3ccc(Cl)cc3)o2)cc1			CEM	MTT	SIV	EC50			7.6 µM
Nc1ccc2c(O)cc(S(=O)(=O)[O-])cc2c1S(=O)(=O)[O-]	5 µg/mL		Human amnion AV3 cells	cytopathic effect	Rhinovirus	inhibition			18%
Cc1cc(CCCOc2cc(Cl)c(-c3nnc(C)o3)c(Cl)c2)on1		serotype 2 1A 1B 6 14 21 22 15 25 30 50 67 89 86 41			Rhinovirus	MIC50			0.054 µg/mL
CCCCCN=C(N)c1ccc(N2CCN(c3ccccc3)CC2)cc1	50 µg/mL				Pneumocystis carinii	inhibition			90%
Cc1ccc(C)n1-c1ccc(C(=O)O)c(O)c1		RF X4 CLADE B	MT-2	p24	HIV-1	EC90			2.65 µM
CCO/N=C/c1ccc(OCCC2CCN(c3ccc(Cl)nn3)CC2)cc1		K6579 (ICAM-1 receptor group 100)	KB	neutral red	Rhinovirus	EC50			0.026 µM
CC(=O)ONc1ccc(S(=O)(=O)N(Cc2ccccc2)C[C@@H](O)[C@H](Cc2ccccc2)NC(=O)CCc2c[nH]c3ccccc23)cc1			CEM	MTT	SIV	EC50			8.4 µM
Cc1ccc2oc(=O)n(-c3cccc(F)c3)c(=S)c2c1		My 235/80			Mycobacterium kansasii	MIC	21 d		32 µM
NC(=NCc1ccc(F)cc1)c1ccc(N2CCN(c3ccccc3)CC2)cc1	0.1 µg/mL				Pneumocystis carinii	inhibition			0%
Nc1ccn(C[C@H]2COP(=O)(O)CO2)c(=O)n1			MRC-5	plaque count	Guinea pig cytomegalovirus	EC50			0.5 µM
CC(C)CS[C@@H]1C=C[C@H](n2cnc3c(N)ncnc32)C1		TYPE 1	HeLa	cytopathic effect	Reovirus	EC50			>3.2 µg/mL
CCn1ncc2c1C(=O)c1c(O)ccc(O)c1C2=O	100 µM				Cryptosporidium parvum	inhibition			<10%
CSc1nsc(-c2cccc3ccccc23)c1C#N		Encephalomyocarditis virus	L929	plaque count	Encephalomyocarditis virus	EC50			>4 µM
O=C(Nc1cc(C(F)(F)F)cc(C(F)(F)F)c1)NN(CC(O)CN1CCOCC1)C(=O)Nc1cc(C(F)(F)F)cc(C(F)(F)F)c1		ES142			Escherichia coli	MIC			172 µM
COC(=N)c1ncn([C@@H]2O[C@H](CO)[C@@H](O)[C@H]2O)n1		Sicilian	VERO	cytopathic effect	Sandfly fever virus	EC50			98 µg/mL
O=C(Nc1ccc(C(F)(F)F)cc1)NN(CC(O)CN1CCOCC1)C(=O)Nc1ccc(C(F)(F)F)cc1		ES142			Escherichia coli	MIC			>300 µM
CCCCCCCCCCCCCCCCOCCCOP(=O)(O)CO[C@H](CO)Cn1ccc(N)nc1=O			MRC-5	plaque count	Guinea pig cytomegalovirus	EC50			0.0009 µM
COC(=O)N[C@H](C(=O)N1CCCC1c1ncc(-c2ccc(-c3ccc(-c4cnc([C@@H]5CC(C)CN5C(=O)[C@@H](NC(=O)CO)C(C)C)[nH]4)cc3)cc2)[nH]1)C(C)C		1a	Luc1a.1.19	luciferase	Hepatitis C virus	EC50			0.0000231 µM
O=C(CC(=O)Nc1ccc(F)cc1)Nc1ccc(F)cc1		ES142			Escherichia coli	MIC			>300 µM
N#Cc1c(-c2ccccc2)s[nH]c1=S		Edmonston	HEP-2	plaque count	Measles virus	EC50			>60 µM
O=C1C(c2[nH]c3ccc(S(=O)(=O)O)cc3c2O)=Nc2ccc(S(=O)(=O)O)cc21	50 µg/mL		Human embryonic lung cells	cytopathic effect	Rhinovirus	inhibition			0%
CCOC(=O)c1c(C)nc(NCCCCNc2ccnc3cc(Cl)ccc23)nc1-c1ccccc1		547/OTTI-97-PI-10			Cryptococcus gattii	MIC99			16 µg/mL
Cc1cc(CCCCCOc2cc(Cl)c(-c3nnc(C)o3)c(Cl)c2)on1		Serotype 15			Rhinovirus	MIC80			0.42 µg/mL
NC(=NC1CCCC1)c1ccc(-c2ccc(-c3ccc(C(N)=NC4CCCC4)cc3)o2)cc1		Isolate CA783			Candida albicans	MFC			25 µg/mL
COc1c2c(c(O)c3ccccc13)C(=O)c1cnn(C)c1C2=O	10 µM				Cryptosporidium parvum	inhibition			64%
CCCC(CCC)C(NC(C)=O)C1CC(C(=O)O)CC1N=C(N)N		Influenza A/Shandong/09/93 (H3N2)	MDCK		Influenza A virus	EC50			0.28 µM
CCCCCCCCCCCCN=C(N)c1ccc(N2CCN(c3ccccc3)CC2)cc1	10 µg/mL				Pneumocystis carinii	inhibition			79%
CCc1ccc(C(=O)Nc2n[nH]c3ccccc23)cc1			Human foreskin fibroblasts		Toxoplasma gondii	MIC90			>0.125 µM
Cc1[nH]nc2c1C(=O)c1c(O)ccc(O)c1C2=O					Cryptosporidium parvum	EC50			25–50 µM
CSc1nsc(SC)c1C#N		Encephalomyocarditis virus	L929	plaque count	Encephalomyocarditis virus	EC50			>12 µM
CCC(CC)[C@H](NC(C)=O)[C@@H]1[C@H](O)[C@@H](C(=O)O)C[C@H]1N=C(N)N		H1N1 A/Beijing/252/95	MDCK		Influenza A virus	EC50			0.36 µM
CCCCCCCN=C(N)c1ccc(N2CCN(c3ccccc3)CC2)cc1	0.1 µg/mL				Pneumocystis carinii	inhibition			0%
CC(=O)N[C@H]1[C@H]([C@H](O)[C@H](O)CO)OC(C(=O)O)=C[C@@H]1N=C(N)N		Influenza A/Johannesburg/33/94 (H3N2)	MDCK	visual reading	Influenza A virus	EC50			0.12 µM
CSc1nsc(-c2ccc(OCc3ccccc3)cc2)c1C#N		Edmonston	HEP-2	plaque count	Measles virus	EC50			10 µM